Share of PSTVd loop 15 variants by leaf site

The pool varies loop 15 of the PSTVd intermediate strain in the pattern GGAAACCGNNNNNNC; wild type is GGAAACCGCUACUAC (upper and lower strand joined, each 5' to 3', the first 7 letters being the upper strand, closing pairs included).

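A pool of all variants was put on leaves of three Nicotiana benthamiana plants. Progeny were sequenced from the inoculated region (day 5), the margin of the inoculated leaf (day 10) and systemic leaves (day 12).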

Values are reads per thousand in the sample; higher means more abundant, 0 means not found.
Each value is the mean of three plants.
"Pool" is the share in the plasmid pool used as inoculum, on the same scale.
The inoculated region was read from the minus strand, the other sites from the plus strand.
The authors trace changes outside the varied positions to PCR and sequencing errors or to mutation in the plant; presence does not show that a variant is infectious alone.
Samples held 43,870 to 66,106 reads, so the smallest values rest on one or two reads.
Wild type was 33.9 per thousand in the pool and the most common sequence in every sample (inoculated region 202, 200, 159; leaf margin 724, 746, 710; systemic leaves 856, 883, 880).

sequence	pool	inoculated region	leaf margin	systemic leaves
GGAAACCGGAUCAGC	0.112	0.0781	0.0202	0
GGAAACCGGGGAUCC	0.192	0.107	0.0175	0
GGAAACCGAUUUACC	0.208	0.149	0.0228	0.0101
GGAAACCGAGUCCAC	0.224	0.0824	0.00668	0
GGAAACCGUGUGUCC	0.224	0.0838	0.0262	0
GGAAACCGAAGUGUC	0.160	0.110	0.0121	0.0130
GGAAACCGCCGUAUC	0.208	0.511	0.0195	0.00537
GGAAACCGCGCUCGC	0.288	0.0892	0.0236	0
GGAAACCGGACCUAC	0.384	0.0830	0.0228	0
GGAAACCGCUGCUUC	0.176	0.123	0.00539	0
GGAAACCGACCCAGC	0.240	0.108	0.0362	0.00537
GGAAACCGCGAAACC	0.208	0.100	0.0187	0
GGAAACCGCGUAAAC	0.240	0.115	0.0208	0.00537
GGAAACCGUUGCCCC	0.208	0.0868	0.0134	0
GGAAACCGCCAAUCC	0.240	0.293	0.128	0.0215
GGAAACCGUUUUAGC	0.272	0.104	0	0
GGAAACCGUAAAGCC	0.304	0.0947	0.00668	0
GGAAACCGGCGGAUC	0.224	0.0968	0.00668	0
GGAAACCGCUGGCGC	0.224	0.0805	0.00742	0.00537
GGAAACCGGGUAGUC	0.288	0.100	0.0195	0
GGAAACCGGUUGAAC	0.192	0.109	0.00742	0.0107
GGAAACCGGUGUAAC	0.224	0.0407	0.0134	0
GGAAACCGGCCACUC	0.208	0.0875	0.0254	0
GGAAACCGAUGCUUC	0.288	0.103	0.0108	0
GGAAACCGCUAUAAC	0.208	0.366	0.166	0.0386
GGAAACCGUAGCGAC	0.320	0.0936	0.0202	0
GGAAACCGUAGGCAC	0.160	0.0866	0.0128	0
GGAAACCGGUACGCC	0.224	0.120	0.0108	0.00537
GGAAACCGUGUCCUC	0.176	0.0578	0	0
GGAAACCGAGAAAAC	0.256	0.352	1.34	0.0322
GGAAACCGAUCAACC	0.144	0.123	0	0
GGAAACCGGUGCAGC	0.272	0.0909	0.00668	0
GGAAACCGUACCUCC	0.192	0.116	0.0187	0
GGAAACCGUUGUACC	0.144	0.105	0.00668	0
GGAAACCGCUAUAUC	0.320	0.587	0.0995	0.0439
GGAAACCGUUGUGAC	0.176	0.103	0.0141	0
GGAAACCGACUCCCC	0.288	0.0928	0.00742	0
GGAAACCGAAGGACC	0.480	0.103	0	0
GGAAACCGACGACGC	0.240	0.0950	0.0195	0.00504
GGAAACCGCAUCGAC	0.192	0.0760	0	0.00537
GGAAACCGCCUGGUC	0.128	0.107	0	0
GGAAACCGGAACCAC	0.224	0.0794	0.0208	0
GGAAACCGGCGGGGC	0.304	0.102	0.0175	0.00537
GGAAACCGAAUAGCC	0.224	0.0821	0	0
GGAAACCGGGGUCUC	0.272	0.0886	0.00742	0
GGAAACCGGUGACAC	0.288	0.0695	0.00668	0
GGAAACCGCGAUGGC	0.208	0.0668	0	0
GGAAACCGAUCGGGC	0.256	0.0794	0.0208	0
GGAAACCGUGGUGUC	0.208	0.101	0.0249	0
GGAAACCGACAUUGC	0.288	0.353	0.113	0.0161
GGAAACCGCCAGGUC	0.240	0.532	0.100	0.0799
GGAAACCGUUGAAUC	0.160	0.0505	0.00539	0
GGAAACCGCUGUUCC	0.272	0.0982	0.0175	0

The measurements come from Wu et al. 2024 (doi:10.1371/journal.ppat.1012142).